According to publication PMC4101495, “Prion Fragment Peptides Are Digested with Membrane Type Matrix Metalloproteinases and Acquire Enzyme Resistance through Cu^2+-Binding” (2014):
“Also recorded” adds a separate entry of the source.

Chains of the proteins cited; added tags and fusions are not shown. Residues count along the entry.
UniProt P51512, 29-345 limits assumed: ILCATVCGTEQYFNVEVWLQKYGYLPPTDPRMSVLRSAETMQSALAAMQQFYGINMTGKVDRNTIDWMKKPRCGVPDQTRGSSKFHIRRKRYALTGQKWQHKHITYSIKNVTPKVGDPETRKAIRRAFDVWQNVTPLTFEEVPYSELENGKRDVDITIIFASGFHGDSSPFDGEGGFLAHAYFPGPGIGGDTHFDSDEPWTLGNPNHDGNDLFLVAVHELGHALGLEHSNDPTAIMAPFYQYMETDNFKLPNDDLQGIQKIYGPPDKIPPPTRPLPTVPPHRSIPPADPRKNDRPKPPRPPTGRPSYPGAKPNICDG
UniProt P09237, 18-267 limits assumed: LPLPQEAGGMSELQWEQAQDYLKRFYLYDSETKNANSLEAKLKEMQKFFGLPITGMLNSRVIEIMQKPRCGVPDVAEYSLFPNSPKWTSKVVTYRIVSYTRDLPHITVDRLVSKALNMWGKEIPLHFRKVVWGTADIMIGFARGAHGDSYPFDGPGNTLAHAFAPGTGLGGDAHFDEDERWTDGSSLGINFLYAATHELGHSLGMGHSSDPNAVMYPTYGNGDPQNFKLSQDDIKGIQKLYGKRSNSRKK

How the values were obtained:
recombinant MT1-MMP = recombinant MT1-MMP (Homo sapiens, UniProt P50281); assay: Digestion of hPrP fragment peptides by recombinant MT1-MMP, with or without Cu^2+; details: peptide 0.1 mM, 37 °C, 1 day; for digestion (cleavage) by MT1-MMP / cleavage site by MT1-MMP: absence of Cu^2+; for digestion (cleavage) by MT1-MMP: 50 mM Tris-HCl pH 7.5, 150 mM NaCl, 10 mM CaCl2, 5 mM ZnCl2, 0.005% Briji 35, 3 mM NaN3; for digestion (cleavage) by MT1-MMP / effect of Cu^2+ on cleavage by MT1-MMP: HPLC-UV, LC-ESI-MS; for cleavage site by MT1-MMP / effect of Cu^2+ on cleavage by MT1-MMP: Tris-HCl pH 7.5; for cleavage site by MT1-MMP: ESI-MS and LC-ESI-MS; for effect of Cu^2+ on cleavage by MT1-MMP: presence of Cu^2+ (two equivalents per His residue, final 0 to 0.8 mM)
recombinant MT3-MMP = recombinant MT3-MMP (Homo sapiens, UniProt P51512); assay: Digestion of hPrP fragment peptides by recombinant MT3-MMP, with or without Cu^2+; details: peptide 0.1 mM, 37 °C, 1 day, LC-ESI-MS; for digestion (cleavage) by MT3-MMP: 50 mM Tris-HCl pH 7.5, 150 mM NaCl, 10 mM CaCl2, 5 mM ZnCl2, 0.005% Briji 35, 3 mM NaN3
Recombinant MMP-7 = Recombinant MMP-7 (Homo sapiens, UniProt P09237); assay: Digestion of hPrP fragment peptides by recombinant MMP-7 (control), with or without Cu^2+; details: peptide 0.1 mM, 37 °C, 1 day, LC-ESI-MS; for digestion (cleavage) by MMP-7: 50 mM Tris-HCl pH 7.5, 150 mM NaCl, 10 mM CaCl2, 5 mM ZnCl2, 0.005% Briji 35, 3 mM NaN3
[1] = Digestion of hPrP fragment peptides by human serum (control); details: peptide 0.1 mM, 37 °C, 1 day, Tris-HCl pH 7.5 assay buffer, HPLC-UV, LC-ESI-MS
[2] = presence of Cu^2+ (two equivalents per His residue, final 0 to 0.8 mM), Tris-HCl pH 7.5, HPLC-UV
[3] = absence of Cu^2+, Tris-HCl pH 7.5

Structure (SMILES)	digestion (cleavage) by MT1-MMP (recombinant MT1-MMP)	effect of Cu^2+ on cleavage by MT1-MMP (recombinant MT1-MMP)	digestion (cleavage) by MT3-MMP (recombinant MT3-MMP; absence of Cu^2+, HPLC-UV)	digestion (cleavage) by MMP-7 (Recombinant MMP-7; absence of Cu^2+, HPLC-UV)	digestion (cleavage) by human serum (HS) [1]	other results
CC[C@H](C)[C@H](NC(=O)[C@@H](NC(=O)[C@@H]1CCCN1C(=O)[C@H](CCCNC(=N)N)NC(=O)[C@H](CO)NC(=O)[C@H](CCSC)NC(=O)[C@H](C)NC(=O)[C@H](CO)NC(=O)CNC(=O)[C@H](CC(C)C)NC(=O)[C@H](CCSC)NC(=O)[C@H](Cc1ccc(O)cc1)NC(=O)CNC(=O)CNC(=O)[C@H](CC(C)C)NC(=O)CNC(=O)CNC(=O)[C@@H](NC(=O)[C@@H](NC(=O)[C@H](C)NC(=O)CN)C(C)C)C(C)C)[C@@H](C)CC)C(=O)N[C@@H](Cc1c[nH]cn1)C(=O)N[C@@H](Cc1ccccc1)C(=O)NCC(=O)N[C@@H](CO)C(=O)N[C@@H](CC(=O)O)C(=O)N[C@@H](Cc1ccc(O)cc1)C(=O)N[C@@H](CCC(=O)O)C(=O)N[C@@H](CC(=O)O)C(=O)N[C@@H](CCCNC(=N)N)C(=O)N[C@@H](Cc1ccc(O)cc1)C(=O)N[C@@H](Cc1ccc(O)cc1)C(=O)N[C@@H](CCCNC(=N)N)C(=O)N[C@@H](CCC(=O)O)C(=O)N[C@@H](CC(N)=O)C(=O)N[C@@H](CCSC)C(=O)N[C@@H](Cc1c[nH]cn1)C(=O)N[C@@H](CCCNC(=N)N)C(=O)N[C@@H](Cc1ccc(O)cc1)C(=O)N1CCC[C@H]1C(=O)N[C@@H](CC(N)=O)C(=O)N[C@@H](CCC(N)=O)C(=O)N[C@H](C(=O)N[C@@H](Cc1ccc(O)cc1)C(=O)N[C@@H](Cc1ccc(O)cc1)C(=O)N[C@@H](CCCNC(=N)N)C(=O)N1CCC[C@H]1C(=O)N[C@@H](CCSC)C(=O)N[C@@H](CC(=O)O)C(=O)N[C@@H](CCC(=O)O)C(=O)O)C(C)C	digested	partially inhibited	–	–	–	cleavage site by MT1-MMP (recombinant MT1-MMP): ^127Gly-Tyr^128; also recorded: ^137Pro-Ile^138
CC[C@H](C)[C@H](N)C(=O)N[C@H](C(=O)N[C@@H](CCC(N)=O)C(=O)N[C@@H](Cc1ccc(O)cc1)C(=O)N[C@@H](CCC(=O)O)C(=O)N[C@@H](CCCNC(=N)N)C(=O)N[C@@H](CCC(=O)O)C(=O)N[C@@H](CO)C(=O)N[C@@H](CCC(N)=O)C(=O)N[C@@H](C)C(=O)N[C@@H](Cc1ccc(O)cc1)C(=O)N[C@@H](Cc1ccc(O)cc1)C(=O)N[C@@H](CCC(N)=O)C(=O)N[C@@H](CCCNC(=N)N)C(=O)NCC(=O)N[C@@H](CO)C(=O)O)[C@@H](C)O	cleaved	inhibited	cleaved	–	–	effect of Cu^2+ on cleavage by MT3-MMP (recombinant MT3-MMP; [2]): not inhibited
C[C@@H](O)[C@H](NC(=O)CNC(=O)CNC(=O)CN)C(=O)N[C@@H](Cc1c[nH]cn1)C(=O)N[C@@H](CO)C(=O)N[C@@H](CCC(N)=O)C(=O)N[C@@H](Cc1c[nH]c2ccccc12)C(=O)N[C@@H](CC(N)=O)C(=O)N[C@@H](CCCCN)C(=O)N1CCC[C@H]1C(=O)N[C@@H](CO)C(=O)N[C@@H](CCCCN)C(=O)N1CCC[C@H]1C(=O)N[C@@H](CCCCN)C(=O)O	not digested	–	not digested	not digested	not digested	–
CSCC[C@H](NC(=O)[C@H](Cc1c[nH]cn1)NC(=O)[C@H](CCCCN)NC(=O)[C@H](CCSC)NC(=O)[C@H](CC(N)=O)NC(=O)[C@@H](N)[C@@H](C)O)C(=O)N[C@@H](C)C(=O)NCC(=O)N[C@@H](C)C(=O)N[C@@H](C)C(=O)N[C@@H](C)C(=O)N[C@@H](C)C(=O)NCC(=O)O	–	–	–	–	–	number of cleavage sites identified by MT3-MMP (recombinant MT3-MMP; [3]): one
CC[C@H](C)[C@H](NC(=O)[C@@H](NC(=O)[C@@H]1CCCN1C(=O)[C@H](CCCNC(=N)N)NC(=O)[C@H](CO)NC(=O)[C@H](CCSC)NC(=O)[C@H](C)NC(=O)[C@@H](N)CO)[C@@H](C)CC)C(=O)N[C@@H](Cc1c[nH]cn1)C(=O)N[C@@H](Cc1ccccc1)C(=O)NCC(=O)N[C@@H](CO)C(=O)N[C@@H](CC(=O)O)C(=O)O	–	–	–	–	digested	–
CSCC[C@H](NC(=O)[C@H](CC(N)=O)NC(=O)[C@H](CCC(=O)O)NC(=O)[C@H](CCCNC(=N)N)NC(=O)[C@H](Cc1ccc(O)cc1)NC(=O)[C@H](Cc1ccc(O)cc1)NC(=O)[C@@H](N)CCCNC(=N)N)C(=O)N[C@@H](Cc1c[nH]cn1)C(=O)N[C@@H](CCCNC(=N)N)C(=O)N[C@@H](Cc1ccc(O)cc1)C(=O)N1CCC[C@H]1C(=O)N[C@@H](CC(N)=O)C(=O)N[C@@H](CCC(N)=O)C(=O)N[C@H](C(=O)N[C@@H](Cc1ccc(O)cc1)C(=O)N[C@@H](Cc1ccc(O)cc1)C(=O)N[C@@H](CCCNC(=N)N)C(=O)N1CCC[C@H]1C(=O)N[C@@H](CCSC)C(=O)N[C@@H](CC(=O)O)C(=O)N[C@@H](CCC(=O)O)C(=O)O)C(C)C	digested	–	digested	not with MMP-7	not with MMP-7 and HS	–
CC[C@H](C)[C@H](NC(=O)[C@H](CS)NC(=O)[C@H](CCSC)NC(=O)[C@H](CCC(N)=O)NC(=O)[C@H](CCC(=O)O)NC(=O)[C@@H](NC(=O)[C@@H](NC(=O)[C@H](CCCNC(=N)N)NC(=O)[C@H](CCC(=O)O)NC(=O)[C@H](CCSC)NC(=O)[C@H](CCSC)NC(=O)[C@H](CCCCN)NC(=O)[C@@H](NC(=O)[C@H](CC(=O)O)NC(=O)[C@@H](NC(=O)[C@H](CCC(=O)O)NC(=O)[C@@H](NC(=O)[C@H](Cc1ccccc1)NC(=O)[C@H](CC(N)=O)NC(=O)[C@H](CCC(=O)O)NC(=O)CNC(=O)[C@H](CCCCN)NC(=O)[C@@H](N)[C@@H](C)O)[C@@H](C)O)[C@@H](C)O)C(C)C)C(C)C)C(C)C)C(=O)N[C@H](C(=O)N[C@@H](CCC(N)=O)C(=O)N[C@@H](Cc1ccc(O)cc1)C(=O)N[C@@H](CCC(=O)O)C(=O)N[C@@H](CCCNC(=N)N)C(=O)N[C@@H](CCC(=O)O)C(=O)N[C@@H](CO)C(=O)N[C@@H](CCC(N)=O)C(=O)N[C@@H](C)C(=O)N[C@@H](Cc1ccc(O)cc1)C(=O)N[C@@H](Cc1ccc(O)cc1)C(=O)N[C@@H](CCC(N)=O)C(=O)N[C@@H](CCCNC(=N)N)C(=O)NCC(=O)N[C@@H](CO)C(=O)O)[C@@H](C)O	cleaved	not inhibited	–	cleaved	–	cleavage site by MMP-7 (Recombinant MMP-7; [3]): ^214Cys–^215Ile; effect of Cu^2+ on cleavage by MMP-7 (Recombinant MMP-7; [2]): inhibited; cleavage site by MT1-MMP (recombinant MT1-MMP): ^224Ala–^225Tyr
CSCC[C@H](NC(=O)[C@H](CC(N)=O)NC(=O)[C@H](CCC(=O)O)NC(=O)[C@H](CCCNC(=N)N)NC(=O)[C@@H](N)Cc1ccc(O)cc1)C(=O)N[C@@H](Cc1c[nH]cn1)C(=O)N[C@@H](CCCNC(=N)N)C(=O)N[C@@H](Cc1ccc(O)cc1)C(=O)N1CCC[C@H]1C(=O)N[C@@H](CC(N)=O)C(=O)O	–	–	not with MT3-MMP	digested	digested	–
